Data: US20060083754A1, “Pharmaceutical combinations comprising corticoids and immunosuppressants for treating corticoid- and/or calcineurin inhibitors-resistant diseases” (priority 2003, published 2006)

Test system: human peripheral blood mononuclear cells (PBMC)
Test: T-cell proliferation assay (BrdU ELISA), PBMC stimulated with SEB
Type: cell-based

**Q.** For `C[C@@H]1C[C@H]2[C@@H]3CCC4=CC(=O)C=C[C@]4(C)[C@@]3(F)[C@@H](O)C[C@]2(C)[C@@]1(O)C(=O)CO` [DEX, dexamethasone], which OD is on record?
**A.** The OD was 0.847 and 1.382 and 0.919.

Where “and” joins values, the source holds several entries; their conditions need not be identical. Equal values may be shown once.
